Record: PubChem BioAssay AID504761 (Drosophila RNAi Screening Center, 2011)
In all, the deposit lists about 22,000 reagents; this is a random part of those that have a named target and a result. Of all reagents, 116 (0.52%) are marked active. 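Calls depend on retest data that are not deposited; infection was ranked per plate without normalising between plates; the unit of the infection score is not given.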 Raw values vary from plate to plate and are shown uncorrected. A number with no mark means an inactive call. Names joined by + are all predicted targets of the reagent. Not stated in the record: the amount of reagent, the time to read-out.

Assay: 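Insect host genes that dengue virus relies on to spread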 (primary screen)
Cell system: D.Mel-2 cells from Drosophila
Reagent: long dsRNA against Drosophila genes
Challenge: infection with dengue virus type 2; dose and infection time not stated
Measurement: 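Per well on two replicate plates, imaging gave the percent of cells positive for viral envelope protein, ranked by infection, and a nuclear count of cells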
Reading the numbers: infection score: higher = more virus-infected cells; cell count: higher = more cells in the well
Active means: 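Low infection ranks in the two replicates (chance level up to 0.065) followed by a retest with a 1.5-fold or larger significant decrease, p below 0.05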
Calls: active = confirmed: knock-down lowers infection; inactive = not picked or not confirmed

CG3880 [DRSC04428] → infection score, replicate 1 = 20; infection score, replicate 2 = 10.8; cell count, replicate 1 = 5627; cell count, replicate 2 = 6859
CG3880 [DRSC21404] → infection score, replicate 1 = 1.42; infection score, replicate 2 = 7.04; cell count, replicate 1 = 5900; cell count, replicate 2 = 6193
CG3880 [DRSC27449] → infection score, replicate 1 = 14.4; infection score, replicate 2 = 15.5; cell count, replicate 1 = 6994; cell count, replicate 2 = 6343
CG15642 [DRSC19678] → infection score, replicate 1 = 4.03; infection score, replicate 2 = 1.4; cell count, replicate 1 = 6647; cell count, replicate 2 = 7124
CG15642 [DRSC29032] → infection score, replicate 2 = 5.96; cell count, replicate 1 = 316; cell count, replicate 2 = 1359
CG8237 [DRSC07119] → infection score, replicate 1 = 9.12; infection score, replicate 2 = 5.45; cell count, replicate 1 = 5525; cell count, replicate 2 = 6351
CG8237 [DRSC26686] → infection score, replicate 1 = 1.52; infection score, replicate 2 = 15.4; cell count, replicate 1 = 7033; cell count, replicate 2 = 6239
CG10467 + CG10469 [DRSC28645] → infection score, replicate 1 = 20.6; infection score, replicate 2 = 14.6; cell count, replicate 1 = 5856; cell count, replicate 2 = 6081
msi [DRSC17003] → infection score, replicate 1 = 8.34; cell count, replicate 1 = 3776; cell count, replicate 2 = 377
Arms [DRSC03856] → infection score, replicate 1 = 3.87; infection score, replicate 2 = 3.04; cell count, replicate 1 = 6537; cell count, replicate 2 = 6423
Arms [DRSC03857] → infection score, replicate 1 = 1.59; infection score, replicate 2 = 1.3; cell count, replicate 1 = 5672; cell count, replicate 2 = 5393
Arms [DRSC04052] → infection score, replicate 1 = 8.8; infection score, replicate 2 = 23.4; cell count, replicate 1 = 6947; cell count, replicate 2 = 5834
Arms [DRSC04256] → infection score, replicate 1 = 8.4; infection score, replicate 2 = 7.01; cell count, replicate 1 = 6776; cell count, replicate 2 = 6631
Arms [DRSC28371] → infection score, replicate 1 = 8.05; cell count, replicate 1 = 5130; cell count, replicate 2 = 374
Agps [DRSC05984] → infection score, replicate 1 = 17.5; infection score, replicate 2 = 10.5; cell count, replicate 1 = 5348; cell count, replicate 2 = 4699
Agps [DRSC26742] → infection score, replicate 1 = 7.22; infection score, replicate 2 = 7.07; cell count, replicate 1 = 1843; cell count, replicate 2 = 5885
Ice2 [DRSC14268] → infection score, replicate 1 = 3.07; infection score, replicate 2 = 6.78; cell count, replicate 1 = 6184; cell count, replicate 2 = 6301

Look-ups from the entries so far:
Arms [DRSC04256], cell count, replicate 2 → 6631
Entry for CG8237 [DRSC07119] in “infection score, replicate 1”: 9.12

Further records follow:
Gfat1 [DRSC21219] → infection score, replicate 1 = 2.72; infection score, replicate 2 = 1.54; cell count, replicate 1 = 5770; cell count, replicate 2 = 5595
Gfat1 [DRSC29612] → infection score, replicate 1 = 17.6; infection score, replicate 2 = 17; cell count, replicate 1 = 2789; cell count, replicate 2 = 5219
ergic53 [DRSC11389] → infection score, replicate 1 = 2.26; infection score, replicate 2 = 3.57; cell count, replicate 1 = 6030; cell count, replicate 2 = 6581
maca [DRSC15738] → infection score, replicate 1 = 4.68; infection score, replicate 2 = 5.26; cell count, replicate 1 = 5663; cell count, replicate 2 = 5991
CG12948 [DRSC14576] → infection score, replicate 1 = 0.5; infection score, replicate 2 = 1.79; cell count, replicate 1 = 6049; cell count, replicate 2 = 6186
CG12948 [DRSC27910] → infection score, replicate 1 = 12.3; infection score, replicate 2 = 12.4; cell count, replicate 1 = 4136; cell count, replicate 2 = 7068
Rnmt [DRSC03558] → infection score, replicate 1 = 2.95; infection score, replicate 2 = 2.13; cell count, replicate 1 = 6415; cell count, replicate 2 = 6843
CG32214 [DRSC09613] → infection score, replicate 1 = 7.81; infection score, replicate 2 = 2.73; cell count, replicate 1 = 6122; cell count, replicate 2 = 5979
Fhos [DRSC08943] → infection score, replicate 1 = 1; infection score, replicate 2 = 0.87; cell count, replicate 1 = 6221; cell count, replicate 2 = 5960
Fhos [DRSC10545] → infection score, replicate 1 = 4.45; infection score, replicate 2 = 3.49; cell count, replicate 1 = 6736; cell count, replicate 2 = 6583
Fhos [DRSC10546] → infection score, replicate 1 = 17.2; infection score, replicate 2 = 13.4; cell count, replicate 1 = 5251; cell count, replicate 2 = 6240
Fhos [DRSC10547] → infection score, replicate 1 = 1.51; infection score, replicate 2 = 0.65; cell count, replicate 1 = 6223; cell count, replicate 2 = 6489
Fhos [DRSC28627] → infection score, replicate 1 = 8.52; infection score, replicate 2 = 7.33; cell count, replicate 1 = 6148; cell count, replicate 2 = 5947
